Broadly, the Kd is the constant that tells how readily two partners part at equilibrium. Higher therefore signals weaker binding. In general, koff refers to the rate constant with which the complex falls apart. A lower koff goes with slow dissociation. The kon is the rate constant with which the complex forms.

Among the data in PMC10060530, “Molecular determinants of μ-conotoxin KIIIA interaction with the human voltage-gated sodium channel NaV1.7” (2023) are Kd, koff and kon values, retold here.

Some targets named below: hNaV1.7 D923A (human); hNaV1.7 N365A (human); hNaV1.7 Y362C (human); hNaV1.7 E919Q (human).
Experiment in all cases: whole-cell voltage clamp (kinetics of block of Na+ current)

As for “μ-Conotoxin KIIIA (from UniProt P0C195 5-22) (peptide)”, the Kd stood at 2340 nM with hNaV1.7 D923A (human), 436 nM in the test with hNaV1.7 Y362C (human) and 2510 nM with hNaV1.7 E919Q (human). In addition, the off-rate constant (koff) came out at 0.00322 s⁻¹ with hNaV1.7 D923A (human), 0.000733 s⁻¹ with hNaV1.7 Y362C (human) and 0.00168 s⁻¹ with hNaV1.7 E919Q (human). The on-rate (kon) with hNaV1.7 D923A (human) was 1380 M⁻¹ s⁻¹; with hNaV1.7 N365A (human), 1700 M⁻¹ s⁻¹; in the test with hNaV1.7 Y362C (human), 1680 M⁻¹ s⁻¹; with hNaV1.7 E919Q (human), 667 M⁻¹ s⁻¹.
